A mixed list of measured activities; the numbers were collected in NIAID ChemDB.

Shared fields: toxicity to cultured cells; endpoint: CC50

a–b is a range or a potency band. Blank or dashed fields: not listed here. Neighbouring rows are from separate reports. CCn: concentration that lowers growth or viability of the cells by n%.

compound,method,cell line,value
NC[C@H]1O[C@H](O[C@H]2[C@H](O)[C@@H](O)[C@H](N)C[C@@H]2N)[C@H](N)[C@@H](O)[C@@H]1O,MTT,HEK293T,21 µM
Cc1cccc(/C=N/NC(=O)COCC(=O)N/N=C/c2cccc(C)c2)c1,MTT,RAW 264.7,44.08 µM
Nc1nc2c(ncn2/C=C2/CC2(CO)CO)c(=O)[nH]1,,HeLaP4,0.047 µM
Nc1ncnc2c1ncn2CCOCP(=O)(O)O,MTT,HSB-2,277 µM
OC[C@H]1O[C@@H](n2cnc3cc(Cl)c(Cl)cc32)[C@H](O)[C@H]1O,,E6SM,10 µg/mL
N#CC(=C(/N)Sc1ccccc1N)/C(C#N)=C(\N)Sc1ccccc1N,MTS,Akata,7.376 µM
O=c1oc2ccccc2c2c1C(c1ccncc1)c1c(c3ccccc3oc1=O)O2,MTT / absorbance,SupT1,>1000 µM
CN(C)C(=S)Oc1ccc(Cl)cc1C(=O)Nc1ccc(F)cc1,MTT,HepG2 cell,116.8 µM
C[S@@](=O)CCCCN=C=S,WST,HONE-1,15.31 µM
Cc1cccc2c1OP(=O)(OC[C@H]1O[C@@H](n3cc(/C=C/Br)c(=O)[nH]c3=O)C[C@@H]1OC(=O)[C@H](N)Cc1ccccc1)OC2,,P3HR-1,16 µg/mL
[2H][C@@](CCC)(NC(=O)[C@@H]1[C@H]2CCC[C@H]2CN1C(=O)[C@@H](NC(=O)[C@@H](NC(=O)c1cnccn1)C1CCCCC1)C(C)(C)C)C(=O)C(=O)NC1CC1,MTT,Huh7,83 µM
C=CCCC[C@@H]1OC(=O)CNC(=O)[C@H]([C@@H](C)CC)NC(=O)[C@@H]2CCCN2C(=O)[C@H]([C@@H](C)CC)OC(=O)[C@H](Cc2ccccc2)N(C)C(=O)[C@H](C(C)C)NC(=O)C1(C)C,MTT,MCF-7,11 µM
O=C(COCC(=O)N/N=C/c1ccccc1[N+](=O)[O-])N/N=C/c1ccccc1[N+](=O)[O-],MTT,RAW 264.7,13.97 µM
CN(C(=O)Oc1ccc(Cl)cc1C(=O)Nc1ccc(Cl)cc1)c1ccccc1,MTT,HepG2 cell,289 µM
COc1ccc(C2CNC(=O)C2)cc1OC1CCCC1,,A3.5,>>100 µM
C/C=C/C=C/C1OC(O)(C(CC)C(=O)NC/C=C/C=C(\C)C(OC)C(C)C2OC(/C=C/C=C/C=C(\C)C(=O)c3c(O)ccn(C)c3=O)C(O)C2O)C(O)C(OC2OC(C)C(OC3OC(C)C(OC)C(O)C3OC)C(OC)C2O)C1(C)C,,HeLa,20 µg/mL
Nc1ccn([C@@H]2CS[C@H](CO)O2)c(=O)n1,WST,Li-7,>100 µM
c1cc(CN2CCCNCCNCCCNCC2)ccc1CN1CCCNCCNCCCNCC1,,MT-4/HUT-78(IIIB+),>250 µg/mL
Nc1ncc2ncn(C3OC(C(NC(=O)C4CCCC4N)C(=O)O)CC(O)(C(O)CO)C3O)c2n1,,HeLa,1000 µg/mL
O[C@@H]1CC(n2cnc3cc(Cl)c(Cl)cc32)OC[C@@H]1O,,E6SM,≥100 µg/mL
CCCCCCCC/C=C\CCCCCCCCCCCC(=O)O,,HeLa,75 µg/mL
CCCCCCCCCCCCCCCC(=O)OCC(CO)(COC(=O)CCCCCCCCCCCCCCC)NC(=O)CNC(=O)CC[C@H](NC(=O)c1ccc(N(C)Cc2cnc3nc(N)nc(N)c3n2)cc1)C(=O)O,,SWISS 3T3,0.4139 µM
NNC(=O)c1ccncc1,MTT,HepG2 cells,>250 µM
O=C(COCC(=O)N/N=C/c1cccc([N+](=O)[O-])c1)N/N=C/c1cccc([N+](=O)[O-])c1,MTT,RAW 264.7,38.46 µM
OC[C@H]1O[C@H](n2cnc3cc(Cl)c(Cl)cc32)[C@@H](O)[C@H]1O,,E6SM,≥400 µg/mL
COc1cc(OC(C)C(C)(C)C)cc(OC)c1/C=C/COC(C)C(C)(C)C,MTT,C8166 cells,3.03 µM
CO/N=C1\CCCN(c2nc(=O)c3cc(C(F)(F)F)cc([N+](=O)[O-])c3s2)CC1,MTT,A-594,58.3 µg/mL
OCCOC([C@H](O)CO)n1cnc2cc(Cl)c(Cl)cc21,,E6SM,400 µg/mL
O=c1[nH]c(=O)c([C@@H]2O[C@H](CO)[C@@H](O)[C@H]2O)co1,,HeLa,100 µg/mL
O=c1[nH]c(=O)n([C@@H]2O[C@H](CO)[C@@H](O)[C@@H]2O)cc1/C=C/Br,MTT,HSB-2,232 µM
COc1cc(C2C3(O)C(O)C4CC2(O)C(O)(C(=O)O4)C3C(=O)c2ccccc2)oc(=O)c1,,HeLa,>100 µg/mL
CCCc1cc(=O)oc2c3c(c4c(c12)OC(C)(C)C=C4)O[C@H](C)[C@@H](C)[C@@H]3O,,CEMx174,10–20 µM
O=C(/C=C/C=C/c1ccc([N+](=O)[O-])cc1)[Se]c1ccccc1,WST,HLE,67.1 µM
COC(=O)[C@H](C)NP(=O)(OC[C@H]1O[C@@H](N2C(=O)NC(=O)C(C)(Br)C2OC)C[C@@H]1N=[N+]=[N-])Oc1ccc(OC)cc1,,Human vaginal epithelial,>400 µM
O=C(/C=C/C=C/c1ccccc1)[Se]c1ccccc1,WST,Li-7,>100 µM
C[C@@H](CCOc1ccc(-c2ccc(Cl)cc2)cc1)CCN1CCN(c2ccncc2)C1=O,,RD,>25 µM
CCCc1cc(=O)oc2c3c(c4c(c12)OC(C)(C)C=C4)O[C@@H](C)[C@H](C)[C@@H]3O,,AA5,10–20 µM
C#CCCC[C@@H]1OC(=O)CNC(=O)[C@H]([C@@H](C)CC)NC(=O)[C@@H]2CCCN2C(=O)[C@H]([C@@H](C)CC)OC(=O)[C@H](Cc2ccccc2)N(C)C(=O)[C@H](C(C)C)NC(=O)C1(C)C,MTT,HT-29,13 µM
COc1cc([C@@H]2c3cc4c(cc3[C@H](OC(C)=O)[C@@H]3COC(=O)[C@@H]23)OCO4)cc2c1OC1(N3CCCC3)CCCCC1O2,,P-388,2.02 µM
CC(=O)c1c(O)c(C)c(O)c(Cc2c(O)c3c(c(C(=O)/C=C/c4ccccc4)c2O)OC(C)(C)C=C3)c1O,MTS,Akata,1.005 µM
COc1ccc(-c2cc(OC)c(O)c(OC)c2O)cc1,sulforhodamine / absorbance,P-388,37.87 µM
Nc1nc2c(ncn2[C@H]2CO[C@@H](CO)O2)c(=O)[nH]1,,2.2.15,2000 µM
O=c1nc(N2CCC(=NOCc3ccccc3)CC2)sc2c([N+](=O)[O-])cc(C(F)(F)F)cc12,MTT,A-594,441 µg/mL
CCCCCC(=O)O[C@H]1C[C@H](n2cc(/C=C/Br)c(=O)[nH]c2=O)O[C@@H]1COP1(=O)OCc2cccc(C)c2O1,,P3HR-1,>200 µg/mL
COc1cc([C@@H]2c3cc4c(cc3[C@H](OC(C)=O)[C@@H]3COC(=O)[C@@H]23)OCO4)cc(OC)c1OC,,HT-29,0.55 µM
O=c1[nH]cnc2c1ncn2[C@H]1CC[C@@H](CO)O1,,MM,>200 µM
O=C(/C=C/C=C/c1ccc(O)c(O)c1)[Se]c1ccccc1,WST,HLE,>100 µM
Nc1ccn(C[C@@H](CO)OCP(=O)(O)O)c(=O)n1,MTT,CBMC,180 µM
CN(C(=O)Oc1ccc(Cl)cc1C(=O)Nc1ccc(Br)cc1)c1ccccc1,MTT,HepG2 cell,945.1 µM
CO[C@@H]1[C@@H](O[C@@H]2O[C@H](C)[C@@H](O[C@H]3C[C@@](C)(O)[C@@H](O)[C@H](C)O3)[C@H](N(C)C)[C@H]2O)[C@@H](CC=O)C[C@@H](C)[C@@H](O)/C=C/C=C/C[C@@H](C)OC(=O)C[C@H]1O,,HeLa,20 µg/mL
O=C(COCC(=O)N/N=C/c1cccc(OCc2ccccc2)c1)N/N=C/c1cccc(OCc2ccccc2)c1,MTT,RAW 264.7,26.24 µM
OC[C@H]1O[C@@H](n2cnc3cc(Cl)c(Cl)cc32)[C@@H](O)[C@@H]1O,,E6SM,40 µg/mL
O=c1nc(N2CCN(CC3CCCCC3)CC2)sc2c([N+](=O)[O-])cc(C(F)(F)F)cc12,MTT,A-594,784.2 µg/mL
O=c1oc2ccccc2c2c1C(c1cccnc1)c1c(c3ccccc3oc1=O)O2,MTT / absorbance,SupT1,>1000 µM
CCCCCCCCCCCCCCCC(=O)OCC(CO)(COC(=O)CCCCCCCCCCCCCCC)NC(=O)CNC(=O)[C@H](CCC(=O)O)NC(=O)c1ccc(N(C)Cc2cnc3nc(N)nc(N)c3n2)cc1,,Jurkat cells,10.3 µM
CON=C1CN(c2nc(=O)c3cc(C(F)(F)F)cc([N+](=O)[O-])c3s2)C1,MTT,A-594,91.37 µg/mL
O=C(O)P(=O)(O)O,MTT,CBMC,897 µM
O=C(COCC(=O)N/N=C/c1ccc(OCc2ccccc2)cc1)N/N=C/c1ccc(OCc2ccccc2)cc1,MTT,RAW 264.7,31.56 µM
Nc1nc(NC2CC2)c2ncn([C@H]3C=C[C@@H](CO)C3)c2n1,WST,Li-7,>100 µM
CC(C)=CCC[C@@H](C)[C@@H]1CC[C@]2(C)C3=C(CC[C@@]12C)[C@@]1(C)CC[C@H](O)C(C)(C)[C@@H]1CC3,sulforhodamine / absorbance,HT-29,>50 µM
O=C1Cc2c([nH]c3ccc(Br)cc23)-c2ccccc2N1,MTS,Akata,5.127 µM
O=C(/C=C/c1ccc(O)cc1)[Se]c1ccccc1,WST,HLE,>100 µM
CC(C)=CC[C@H]1C[C@]2(C[C@H]3CCC(C)(C)C=C3C)C(=O)C3=C(OC(C)(C)CC3)[C@@](C(=O)c3ccccc3)(C2=O)C1(C)C,sulforhodamine / absorbance,ASK (Atlantic salmon kidney),>50 µM
COc1cc(/C=C/C(=O)[Se]c2ccccc2)ccc1O,WST,Li-7,>100 µM
COc1cc(-c2ccccc2)c(OC)c(OC)c1O,XTT / absorbance,1A2,292 µM
CC(CCOc1ccc(-c2ccc(Cl)cc2)cc1)CCN1CCN(c2ccncc2)C1=O,,RD,>25 µM
Nc1nc(N)c2ncn(CCOCP(=O)(O)O)c2n1,MTT,HSB-2,153 µM
COC(=O)[C@@H]1[C@H](c2cc(OC)c(OC(C)=O)c(OC(C)=O)c2)c2cc3c(cc2C2=NOC[C@@H]21)OCO3,,HT-29,20 µM
O=C(COCC(=O)N/N=C/c1ccccc1OCc1ccccc1)N/N=C/c1ccccc1OCc1ccccc1,MTT,RAW 264.7,9.2 µM
Nc1nc(N)c2ncn([C@H]3CC[C@@H](CO)O3)c2n1,,GM-CFC,>500 µM
O=C(O)CP(=O)(O)O,MTT,CBMC,300 µM
O=C1c2c(O)cc(O)cc2O[C@@H](c2ccc(O)cc2)[C@@H]1c1c(O)cc(O)c2c(=O)cc(-c3ccc(O)c(O)c3)oc12,sulforhodamine / absorbance,ASK (Atlantic salmon kidney),>50 µM
COC(=O)[C@@H]1[C@H](c2cc(OC)c3nccnc3c2)c2cc3c(cc2C2=NOC[C@@H]21)OCO3,,HT-29,2.8 µM
Nc1ncnc2c1ncn2C[C@H]1COP(=O)(O)CO1,MTT,CBMC,72 µM

A second listing of 10 rows from above:

Nc1nc2c(ncn2[C@H]2CO[C@@H](CO)O2)c(=O)[nH]1 ; cell line: 2.2.15 ; value: 2000 µM
Nc1nc(N)c2ncn([C@H]3CC[C@@H](CO)O3)c2n1 ; cell line: GM-CFC ; value: >500 µM
COc1ccc(-c2cc(OC)c(O)c(OC)c2O)cc1 ; method: sulforhodamine / absorbance ; cell line: P-388 ; value: 37.87 µM
O=C(/C=C/c1ccc(O)cc1)[Se]c1ccccc1 ; method: WST ; cell line: HLE ; value: >100 µM
OCCOC([C@H](O)CO)n1cnc2cc(Cl)c(Cl)cc21 ; cell line: E6SM ; value: 400 µg/mL
Nc1ncc2ncn(C3OC(C(NC(=O)C4CCCC4N)C(=O)O)CC(O)(C(O)CO)C3O)c2n1 ; cell line: HeLa ; value: 1000 µg/mL
CC(C)=CC[C@H]1C[C@]2(C[C@H]3CCC(C)(C)C=C3C)C(=O)C3=C(OC(C)(C)CC3)[C@@](C(=O)c3ccccc3)(C2=O)C1(C)C ; method: sulforhodamine / absorbance ; cell line: ASK (Atlantic salmon kidney) ; value: >50 µM
O=C(O)CP(=O)(O)O ; method: MTT ; cell line: CBMC ; value: 300 µM
O=C(O)P(=O)(O)O ; method: MTT ; cell line: CBMC ; value: 897 µM
CCCCCCCCCCCCCCCC(=O)OCC(CO)(COC(=O)CCCCCCCCCCCCCCC)NC(=O)CNC(=O)[C@H](CCC(=O)O)NC(=O)c1ccc(N(C)Cc2cnc3nc(N)nc(N)c3n2)cc1 ; cell line: Jurkat cells ; value: 10.3 µM